Pooled drug test results. Numbers come from NIAID ChemDB, via PubChem.

Shared fields: tests on isolated targets; species: HIV-2; target: Reverse transcriptase; endpoint: IC50

ICn: concentration for n% inhibition. Conditions beyond the fields shown may differ between rows. An empty or dashed field is not shown.

SMILES	strain	method	mutations	value
COc1ccc(C)cc1CS(=O)(=O)c1cccc[n+]1[O-]		nucleotide incorporation / radiometric		>500 µg/mL
CN(CC(=O)Nc1ccc(Br)cc1C(=O)O)CC(=O)Nc1ccc(Br)cc1C(=O)O				>100 µg/mL
COc1ccc(OC)c(C/C=C(\C)CC/C=C(\C)CC/C=C(\C)CC/C=C(\C)CC/C=C(\C)CCC=C(C)C)c1		nucleotide incorporation		10 µM
CC(C)=CCN1Cc2cccc3[nH]c(=S)n(c23)C[C@@H]1C				>300 µM
O=S(=O)(Cc1ccccc1I)c1cccc[n+]1[O-]		nucleotide incorporation / radiometric		>500 µg/mL
Cc1ccc(C)c(C(C)S(=O)(=O)c2c(C)ccc[n+]2[O-])c1		nucleotide incorporation / radiometric		>500 µg/mL
CC(C)=CCN1Cc2cccc3[nH]c(=S)n(c23)C[C@@H]1C	ROD	radiometric	RT-D194	>500 µM
O=C(CCCCC(=O)Nc1ccc(Br)cc1C(=O)O)Nc1ccccc1				>100 µg/mL
Cc1ccc(C)c(CS(=O)(=O)c2cccc[n+]2[O-])c1		nucleotide incorporation / radiometric		>500 µg/mL
CCN1C(=O)C=CC1=O		nucleotide incorporation		750 µM
O=C(Cc1cccc(CC(=O)Nc2ccc(Br)cc2C(=O)O)c1)Nc1ccc(Br)cc1C(=O)O				>100 µg/mL
COc1ccc(C)cc1CS(=O)(=O)c1cccc[n+]1[O-]		nucleotide incorporation / radiometric		>500 µg/mL
CC(C)OC(=O)c1cc(NC(=S)OC(C)C)ccc1Cl				>>300 µM
Cc1ccc(C)c(C(Cl)S(=O)(=O)c2cc(C)cc[n+]2[O-])c1		nucleotide incorporation / radiometric		>500 µg/mL
Nc1nc2c(ncn2[C@H]2CC[C@@H](COP(=O)(O)OP(=O)(O)OP(=O)(O)O)O2)c(=O)[nH]1	ROD	nucleotide incorporation		>5 µM

Repeating the final 2 entries:

SMILES	strain	method	mutations	value
Cc1ccc(C)c(C(Cl)S(=O)(=O)c2cc(C)cc[n+]2[O-])c1		nucleotide incorporation / radiometric		>500 µg/mL
Nc1nc2c(ncn2[C@H]2CC[C@@H](COP(=O)(O)OP(=O)(O)OP(=O)(O)O)O2)c(=O)[nH]1	ROD	nucleotide incorporation		>5 µM